The entries are a selection whose mix differs from that of the whole data set. Active and inactive are the calls of the source. No stated cut-off is given here; in the data, active means survival mostly below about 52% (no sharp cut-off); inactive means mostly above about 56%.

The test system of the assay is Wild type. In words: growth inhibition of S. aureus wild type versus tarO mutant, primary screen, teichoic acid synthesis inhibitors, RN4220, OD600 (AID 463173). As to conditions: S. aureus RN4220 wild type/DeltatarO growth, OD600, 18 h, active compounds read low, screened at 18.75 µg/mL (by protocol).
Consider `CCCOc1cccc(C(=O)NCC2(N3CCOCC3)CCCCC2)c1`, for which the survival is inactive: 83%. Under `CCOc1ccc(C(=O)NCC2(N3CCOCC3)CCCCC2)cc1` stands inactive: 88%. Under `O=C(NCC1(N2CCOCC2)CCCCC1)c1ccccc1Br` stands inactive: 89%. Under `CCCCOc1ccccc1C(=O)NCC1(N2CCOCC2)CCCCC1` stands inactive: 82%. As for `O=C(NCC1(N2CCOCC2)CCCCC1)c1ccc(Cl)cc1`, the survival was inactive: 113%. On to `COc1ccccc1C(=O)NCC1(N2CCOCC2)CCCCC1`, for which the survival is inactive: 89%. Under `CC(C)(C)c1ccc(C(=O)NCC2(N3CCOCC3)CCCCC2)cc1` stands inactive: 89%; under `Cc1ccccc1C(=O)NCC1(N(C)C)CCCCC1`, inactive: 87%.

On to `CN(C)C1(CNC(=O)c2ccc(C(C)(C)C)cc2)CCCCC1`, for which the survival was inactive: 87%.

On to `COc1cc(C(=O)NCC2(N3CCOCC3)CCCCC2)cc(OC)c1OC`, for which the survival is inactive: 87%.

Take `O=C(NCC1(N2CCOCC2)CCCCC1)c1ccccc1`: the survival is inactive: 87%. As to `O=C(NCC1(N2CCOCC2)CCCCC1)c1ccc([N+](=O)[O-])cc1`, the survival is inactive: 87%. Under `O=C(NCC1(N2CCOCC2)CCCCC1)c1ccccc1[N+](=O)[O-]` stands inactive: 89%.

The values are drawn from PubChem BioAssay AID463173 (ICCB-Longwood Screening Facility, Harvard Medical School, 2010).
